# Assay results: US20220251174A1 (published 2022)
# Molecular target: SARS-CoV-2 Spike protein (D614G) on authentic virus BetaCoV/Munich/BavPat1/2020
# Assay: cell-based or functional assay
row,Binder,Live virus IC50 (µg/mL) (printed 'Love Virus')
1,"13-A1 (full-length human IgG1) (antibody, V domains shown) VH: EVQLVQSGAEVKKPGESLKISCKGSGYSFTSYWIGWVRQMPGKGLEWMGIIYPGDSDTRYSPSFQGQVTISADKSISTAYLQWSSLKASDTAMYYCARYLSSEGMDVWGKGTTVTVSS VL: QSVLTQPPSASGTPGQRVTISCSGRSSNIGSNPVNWYQQLPGTAPKLLIYNNIQRPSGVPDRFSGSKSGTSASLAISGLQSEDEAVYYCASWDDSLNEGVFGGGTQLTVL",> 100
2,"5-B6 (full-length human IgG1) (antibody, V domains shown) VH: QVQLVQSGAEVKKPGSSVKVSCKASGGTFSSYAISWVRQAPGQGLEWVGGIIPMFNSASYAQKFQGKVTITADKATNTAYMELSSLRSEDTAVYYCARESSGYYYVSNWFDPWGQGTLVTVSS VL: QSVLTQPSSVSGAPGQRVTISCTGSSSNIGAGYDVHWYQQIPGTAPRLLIYANSGRASGVPDRFSGSKSGTSASLAITGLQAEDEADYYCQSYDSSLSGVVFGGGTKLTVL",> 100
3,"8-D4 (full-length human IgG1) (antibody, V domains shown) VH: EVQLVQSGAEVKKPGESLKISCKGSGYSFTSYWIGWVRQMPGKGLEWMGIIYPGDSDTRYSPSFQGQVTISADKSISTAYLQWSSLKASDTAMYYCARNPSLYSSPTDYWGQGTLVTVSS VL: not shown",> 100
4,"22-D9 (full-length human IgG1) (antibody, V domains shown) VH: QVQLVQSGAEVKKPGSSVNVSCKTSGGTFNTYSINWVRQAPGQGLEWMGEIIPIFDKPNYAQKFQGRVTITADESTSTAYMELTSLRSDDTAVYYCARGTGYYYGMDVWGQGTTVTVSS VL: QSVLTQPPSVSGAPRQTVTISCFGSRSNIGNYPVNWYHQVPGKAPKVVVYYDDLLPSGISDRFSGYKSGTSASLTISGLRSEDEADYYCATWDDSLNVWVFGGGTKLTVL",> 100
5,"8-A2 (full-length human IgG1) (antibody, V domains shown) VH: QVQLVQSGAEVKKPGASVKVSCKASGYTFTGYYLHWVRQAPGQGLEWMGRINPNSGGTNYAQKFQGRVTMTRDTSISTAYMELSRLTSDDTAVYYCLAVAGTGGDAFDIWGQGTTVTVSS VL: DIQMTQSPSTLSASVGDRVTITCRASQSISSWLAWYQQKPGKAPKLLIYAASSLESGVPSRFSGSGSGTDFTLTISSLQPEDFATYYCQQGHSFPLTFGGGTKVDIK",> 100
6,"11-H1 (full-length human IgG1) (antibody, V domains shown) VH: not shown VL: QSVLTQPPSVSEAPRQRVTISCSGSSSNIGNNAVNWYQQLPGQAPRLLIYYDNLLPSGVSDRFSASTSGTSASLAISDLRSEDEADYYCASWDDRLDSPVFGGGTKLTVL",> 100
7,"23-A11 (full-length human IgG1) (antibody, V domains shown) VH: QVQLVESGGGVVQPGRSLRLSCAASGFTFSSYGMHWVRQAPGKGLEWVAVISYDGSNKYYADSVKGRFTISRDNSKNTLYLQMNSLRAEDTAVYYCAKEGELRGAFDIWGQGTMVTVSS VL: SYVLTQPPSVSVAPGKTARITCGGDNIESKYVHWYQQKPGQAPVLVIYYDTDRPSGIPERFSGANSGNSATLTISRVEAGDEADYYCQVWDRTSGHFVFGPGTKVTVL",> 100
8,"2-A6 (full-length human IgG1) (antibody, V domains shown) VH: QVTLRESGPALVKPTQTLTLTCTFSGFSLNTRGMSVSWIRQPPGKALEWLALIDWEDDKFYRTSLMTRLTISKDIFKNQVVLTMTNVDPVDTGTYYCARTYSVGVKYFGMDVWGQGTTVTVSS VL: SSELTQDPAVSVALGQTVRITCQGDSLRNYYASWYRQEPGQAPILLIYGGNYRPSGIPDRFSGSSSGNTASLTITGAQAEDEADYYCNSRDSSGNHVVFGGGTKLTVL",> 100
9,"22-F7 (full-length human IgG1) (antibody, V domains shown) VH: QVQLVESGGGVVQPGRSLRLSCAASGFSFTNYGMHWVRQAPGKGLEWVAVISYDGSIKYYEDSLKGRFTVSRDNSKKTLYLQMNSLRAEDTAVYYCTRERGTGIDYWGLGTLVTVSS VL: QSALTQPASVSGYPGQSITLSCTGTKSDIGAYNYVSWYQQHPGKAPKLMVYDVSNRPSGLSNRFSGSKSDNTASLTISGLQAEDEAHYYCSSYTTSGTVVFGGGTKVTVL",> 100
10,"30-C5 (full-length human IgG1) (antibody, V domains shown) VH: QVQLVESGGGVVQPGRSLRLSCAASGFTFSNYGMHWVRQAPGKGLEWVAVISYDGSIEYYADSVKGRFTISRDNSSNTLYLQMNSLRAEDTAVYYCARDEDGAFDIWGQGTTVTVSS VL: DIVMTQSPESLAVSLGERATINCKSSESVSYSSSNKNYLSWYQQIPGQPPKLLIYWASTRESGVPDRFSGSGSGTDFTLTISSLQAEDVAVYYCQQYYSSPLTFGGGTKVEIK",> 100
11,"21-F2 (full-length human IgG1) (antibody, V domains shown) VH: QVQLVQSGAEVKKPGASVTVSCKTSGYIFTNYDINWVRQAPGQGLEWVGWVNPNSGKVGYAQKFQGRVIMTRSDSESTAYMELTNLTSDDTAVYYCARGHTDFWGQGTLVTVSS VL: QSVLTQPPSVSEAPRQRVTISCSGSSSNIGNNAVNWYQQLPGRAPKLLIYYDDLLPSGVSDRFSGSKSGTSASLAISGLQSEDEADYYCAAWDDSLNGVVFGGGTQLTVL",10.5
12,"22-E7 (full-length human IgG1) (antibody, V domains shown) VH: QVQLVESGGGVVQPGTSLRLSCAASGFTFNNYPMFWVRQAPGKGLEWLALISYDGNHKVYADSVKGRFTISRDNAKNTLYLQMHSLRAEDTALYYCASDLSGAEDSWGQGTLVTVSS VL: QSALTQPASVSGSPGQSITISCTGTSSDVGGYNYVSWYQQHPGKAPKLLIYEVSNRPSGVSNRFSGSKSGNTASLTISGLQAEDEADYYCSSYTSSSTWVFGGGTKLTVL",> 100
13,"22-E8 (full-length human IgG1) (antibody, V domains shown) VH: QVQLVQSGAEVKKPGSSVKVSCKASGGTFSSYAISWVRQAPGQGLEWMGGIIPIFGTTNYAQKFQGRVTITADESTSTAYMELSSLRSEDTAVYYCARDHGYYYGMDVWGQGTTVTVSS VL: QSVLTQPSSVSAAPRQRVTLSCSGGDSNIGQNGVNWYLHVPGKAPRLVVYYDYLVSAGMSARFSGSRSGTSASLAISGLQSEDEGVYYCASWDDSLSAWVFGGGTKLTVL",> 100
14,"27-A11 (full-length human IgG1) (antibody, V domains shown) VH: QVQLVQSGAEVKKPGASVKVSCKASGYTFTSYYMHWVRQAPGQGLEWMGIIDPSGGSTSYAQKFQGRVTLTRDTSTSTVYMELSSLRSEDTAVYYCARSRDGYIDDAFDIWGQGTLVTVSS VL: QSVLTQPPSVSAAPGQKVTISCSGSSSNIGNNYVSWYQQLPGTAPKLLIYDNNKRPSGIPDRFSGSKSGTSATLGITGLQTGDEADYYCGTWDSSLSAGVFGGGTKLTVL",> 100
15,"24-B8 (full-length human IgG1) (antibody, V domains shown) VH: QVQLVQSGAEVKKPGSSVKVSCKASGGTFSNYAISWVRQAPGQGLEWMGGIIPILDTTNYAQKFQGRVTITADESTSTAYMELNSLRSEDTAVYYCVREEGFDYWGQGTLVTVSS VL: QSVLTQPSSLSASPGASASLTCTLRSGINVGAYNIYWYQQKPGSPPQFVLRYNSDSDNQQGSGVPSRFSGSKDASANAGILLISGLQSEDEAEYYCMIWRSSAWVFGGGTKLTVL",> 100
